The subject of the test is PfDd2 resistant clones D6 and F3 (PfPI4Kβ S1320L). Description: microbe, parasite or virus in culture. The note with it: Plasmodium falciparum.

Where two headings read alike, the source gives them in different places.

In general, IC50 refers to the point on the concentration scale where inhibition reaches its midpoint. In the case of `CN(C)CCCOc1ccc(-c2ccc3ncc4c(c3c2)n(C2CCOCC2)c(=O)n4C)cn1` [AZD0156], the concentration for half-maximal inhibition (IC50) runs as follows: (D6, read-out: IC50 clone D6) 389 ± 13 nM; (D6, read-out: IC50 clone F3) 337 ± 5 nM.

Source of the values: PMC12232896 (Angewandte Chemie (International Ed. in English), 2025).
